Compound potency records, mixed from different reports. Data source: NIAID ChemDB in PubChem.

Shared fields: host cell toxicity; endpoint: CC50

CCn is the concentration with n% toxicity to the cells. Blank or dashed fields: not listed here. Conditions beyond the fields shown may differ between rows.

structure	method	cells	value
S=C1NCCN1C(=S)Nc1cccc(OCc2ccccc2)c1	MTS	Ava5-EG(delta4AB)SEAP	>1 µM
COC(=O)N[C@H](C(=O)NC(CO)CCCC(CO)N(CCC(C)C)S(=O)(=O)c1ccc(N)cc1)C(c1ccccc1)c1ccccc1	microscopy	T lymphoid cells	>10 µM
O=C(NCCc1ccc2c(n1)NCCC2)Nc1ccccc1N1CCOCC1		PBMC	50 µM
CCOC(=O)c1c(O)c2cc(Cc3ccccc3)cnc2n(O)c1=O		HeLa	<100 µM
NC(=S)Nc1cccc(OCCCCCOc2ccc(C(=O)O)cc2)c1	MTS	Ava5-EG(delta4AB)SEAP	>1 µM
CC(C)C[C@@H]1NC(=O)[C@H](Cc2c[nH]c3ccccc23)NC(=O)CNC(=O)[C@H](CC(N)=O)NC(=O)[C@H](C(C)C)NC(=O)[C@@H](CC(C)C)NC1=O	MTT	Colorectal carcinoma cells	>30 µM
CCOC(=O)C1=C(CN2CC(F)(F)[C@@H]3[C@H]2CON3CC(O)(CC)C(=O)O)NC(c2nccs2)=N[C@H]1c1cccc(F)c1C	WST / absorbance	HepG2.2.15	>100 µM
CC(C)N(Cc1cccc(OCCCCCC(=O)OC(=O)O)c1)C(=O)c1ccc(-c2ccc3c(c2)OCCO3)cc1		RAJI	>20 µM
CC(C)(C)NC(=O)c1cccc(-c2cc(=O)n(O)c3ncccc23)c1		HeLa	<100 µM
N#Cc1ccccc1OCCCCCOc1cccc(NC(N)=S)c1	MTS	Ava5-EG(delta4AB)SEAP	>1 µM
CN[C@H](C(=O)NC(C)(C)CCC[C@@H](CO)N(C(C)C)S(=O)(=O)c1ccc(N)cc1)C(c1ccccc1)c1ccccc1	microscopy	T lymphoid cells	>10 µM
O=C(NCCc1ccc2c(n1)NCCC2)NCc1ccccc1		PBMC	50 µM
CC(C)N(Cc1cccc(OCCCCCC(=O)OC(=O)O)c1)C(=O)c1ccc(-c2cccc(C(F)(F)F)c2)cc1		BJ	>20 µM
CC(C)C[C@@H]1NC(=O)[C@H](Cc2c[nH]c3ccccc23)NC(=O)CNC(=O)[C@H](CC(N)=O)NC(=O)[C@H]([C@@H](C)O)NC(=O)[C@@H](CC(C)C)NC1=O	MTT	Lung carcinoma cells	>30 µM
CC(=O)Nc1cc(=O)n(O)c2ncccc12		HeLa	<100 µM
NC(=S)Nc1ccc2c(c1)Cc1cc(NC(=O)C3CCCCC3)ccc1-2	MTS	Ava5-EG(delta4AB)SEAP	>1 µM
CC(=O)Nc1ccc(S(=O)(=O)NCCc2ccc3c(n2)NCCC3)cc1		PBMC	50 µM
CC[C@@H](CCC[C@@H](CO)N(CC(C)C)S(=O)(=O)c1ccc(CO)cc1)NC(=O)[C@@H](NC(=O)OC)C(c1ccccc1)c1ccccc1	microscopy	T lymphoid cells	>10 µM
O=C(NCCc1ccnc(-n2ccnc2)n1)Nc1cccc(F)c1		PBMC	50 µM
CCCCN1CCN(C(=S)Nc2cccc(OCCCCCc3ccccc3)c2)C1=S	MTS	Ava5-EG(delta4AB)SEAP	>1 µM
COc1cc(OC)cc(-c2ccc(C(=O)N(Cc3cccc(OCCCCCC(=O)OC(=O)O)c3)C(C)C)cc2)c1		HEK 293	>20 µM
CC[C@@H](CCC[C@@H](CO)N(C(C)C)S(=O)(=O)c1ccc(CO)cc1)NC(=O)[C@@H](NC)C(c1ccccc1)c1ccccc1	microscopy	T lymphoid cells	>10 µM
CC(C)C[C@@H]1NC(=O)[C@H](Cc2c[nH]c3ccccc23)NC(=O)C(C[C@@H](C)[C@H](N)C(=O)O)NC(=O)[C@H](CC(N)=O)NC(=O)[C@H](C(C)C)NC(=O)[C@@H](CC(C)C)NC1=O	MTT	Colorectal carcinoma	>30 µM
O=C(NCCc1ccc2c(n1)NCCC2)Nc1ccc(F)c(Cl)c1		PBMC	3.2 µM
CC(C)C[C@@H]1NC(=O)[C@H](Cc2c[nH]c3ccccc23)NC(=O)[C@@H](CCCCN)NC(=O)[C@H](CC(N)=O)NC(=O)[C@H](C(C)C)NC(=O)[C@@H]2CCCN2C1=O	MTT	Lung carcinoma cells	>30 µM
C#CCCC(=O)CCCc1ccc(OC)c(OC)c1		RAJI	<7.5 µM
COc1ccccc1OCCCCCOc1cccc(NC(N)=S)c1	MTS	Ava5-EG(delta4AB)SEAP	>1 µM
CCOC(=O)C1=C(CN2CC(F)(F)[C@@H]3[C@H]2CON3C[C@@H](OC)C(C)(C)C(=O)O)NC(c2nc(C)cs2)=N[C@H]1c1cccc(F)c1C	WST / absorbance	HepG2.2.15	54 µM
O=c1cc(-c2cccc(O)c2)c2cccnc2n1O		HeLa	<100 µM
CCOC(=O)C1=C(CN2CC(F)(F)[C@@H]3[C@H]2CON3CC[C@](C)(O)C(=O)O)NC(c2nccs2)=N[C@H]1c1ccc(F)c(F)c1Cl	WST / absorbance	HepG2.2.15	>100 µM
CCCN([C@H](CO)CCC[C@H](C)NC(=O)[C@@H](NC(=O)OC)C(c1cccc(F)c1)c1cccc(F)c1)S(=O)(=O)c1ccc(N)cc1	microscopy	T lymphoid cells	>10 µM
CCOC(=O)C1=C(CN2CC(F)(F)[C@@H]3[C@H]2CON3C[C@H](F)CCC(C)(C)C(=O)O)NC(c2nccs2)=N[C@H]1c1cccc(F)c1C	WST / absorbance	HepG2.2.15	36.8 µM
COC(=O)N[C@H](C(=O)N[C@H](CCC[C@@H](CO)N(CCC(C)C)S(=O)(=O)c1ccc(Cl)cc1)C1CC1)C(c1ccccc1)c1ccccc1	microscopy	T lymphoid cells	>10 µM

4 of the rows above, restated:

| structure | method | cells | value |
|---|---|---|---|
| COC(=O)N[C@H](C(=O)N[C@H](CCC[C@@H](CO)N(CCC(C)C)S(=O)(=O)c1ccc(Cl)cc1)C1CC1)C(c1ccccc1)c1ccccc1 | microscopy | T lymphoid cells | >10 µM |
| CC[C@@H](CCC[C@@H](CO)N(CC(C)C)S(=O)(=O)c1ccc(CO)cc1)NC(=O)[C@@H](NC(=O)OC)C(c1ccccc1)c1ccccc1 | microscopy | T lymphoid cells | >10 µM |
| CC(C)(C)NC(=O)c1cccc(-c2cc(=O)n(O)c3ncccc23)c1 |  | HeLa | <100 µM |
| CC(C)C[C@@H]1NC(=O)[C@H](Cc2c[nH]c3ccccc23)NC(=O)CNC(=O)[C@H](CC(N)=O)NC(=O)[C@H]([C@@H](C)O)NC(=O)[C@@H](CC(C)C)NC1=O | MTT | Lung carcinoma cells | >30 µM |